A mixed list of measured activities; the numbers were collected in NIAID ChemDB.

Common to all: growth or infection tests; organism: HIV-1; method: p24; read-out: EC95

An empty or dashed field is not shown.

compound	mutations	strain	cells	value
Cc1nnc(C[C@H](C[C@H](O)CN2CCN(Cc3ccc(-c4ccc(Cl)cc4)o3)C[C@H]2C(=O)NCC(F)(F)F)C(=O)N[C@H]2c3ccccc3OC[C@H]2O)o1	PR-L10I M46I I54V Q58E L63P I64V V77I V82F I84V L90M I93L	K-60 Clinical isolate	MT-4	0.031 µM
Cc1cn([C@H]2C[C@H](N=[N+]=[N-])[C@@H](CO)O2)c(=O)[nH]c1=O		A17	MT-4	0.025 µM
Cc1cc(C)c(-n2nnnc2SCC(=O)Nc2ccc(C#N)cc2Cl)c(C)c1			MT-4	<10 µM
Cc1ccnc(C(=O)CC(=O)c2cc(Cc3ccccc3)cc(CN3CCCS3(=O)=O)c2)c1		IIIB	MT-4	0.51 µM
CCc1cc(NCc2nc3ccccc3o2)c(=O)[nH]c1C		rHXB2	MT-4	0.2 µM
CCc1cc(CCc2nc3ccccc3o2)c(=O)[nH]c1C		IIIB	H9	0.1 µM
CC(C)(c1ncc(-c2ccc(Cl)cc2)o1)N1CCN(C[C@@H](O)C[C@@H](Cc2nnco2)C(=O)N[C@H]2c3ccccc3OC[C@H]2O)[C@H](C(=O)NCC(F)(F)F)C1	PR-L10I N37S R41K M46I I54V I62V L63P A71V V77I V82A L90M I93L	Q-60 Clinical isolate	MT-4	0.031 µM
O=C(N[C@H]1c2ccccc2OC[C@H]1O)[C@H](Cc1cccnc1)C[C@H](O)CN1CCN(Cc2ccn(-c3cccc(Cl)c3)c2)C[C@H]1C(=O)NCC(F)(F)F	PR-L10I M36I N37D M46I R57K L63P A71V G73S I84V L90M I93L	V-18C Clinical isolate	MT-4	≤0.008 µM
CCc1cc(NCc2nc3c(Cl)ccc(Cl)c3o2)c(=O)[nH]c1C		MN	MT-4	0.1 µM
O=C(N[C@H]1c2ccccc2OC[C@H]1O)[C@H](Cc1cccnc1)C[C@H](O)CN1CCN(Cc2ccn(-c3cc(Cl)c(Cl)c(Cl)c3)c2)C[C@H]1C(=O)NCC(F)(F)F	PR-L10I M46I I54V Q58E L63P I64V V77I V82F I84V L90M I93L	K-60C Clinical isolate	MT-4	0.031 µM
CC(C)=CCN1Cc2cccc3[nH]c(=S)n(c23)C[C@@H]1C		rA17	MT-4	100 µM
Cc1ccccc1Cc1cccc(C(=O)CC(=O)C(=O)O)c1		IIIB	MT-4	0.61 µM
O=C(N[C@H]1c2ccccc2OCC1O)[C@H](Cc1cccnc1)C[C@H](O)CN1CCN(Cc2ccc(-c3ccccc3)o2)C[C@H]1C(=O)NCC(F)(F)F	PR-L10I N37S R41K M46I I54V I62V L63P A71V V77I V82A L90M I93L	Q-60C Clinical isolate	MT-4	≤0.008 µM
CCCc1nnc(C[C@H](C[C@H](O)CN2CCN(C(C)(C)c3ncc(-c4cncc(OC)c4)o3)C[C@H]2C(=O)NCC(F)(F)F)C(=O)N[C@H]2c3ccccc3OC[C@H]2O)o1		NL4-3 WT	MT-4	0.5 µM
Cc1cccc(C)c1CNC(=O)[C@H]1N(C(=O)[C@@H](O)C[C@@H](Cc2ccccc2)C(=O)N[C@H]2c3ccccc3C[C@H]2O)CSC1(C)C	PR-K60C		MT-4	0.125 µM
Cc1cccc(-n2ccc(CN3CCN(C[C@@H](O)C[C@@H](Cc4cccnc4)C(=O)N[C@H]4c5ccccc5OC[C@H]4O)[C@H](C(=O)NCC(F)(F)F)C3)c2)c1	PR-L10I N37S R41K M46I I54V I62V L63P A71V V77I V82A L90M I93L	Q-60C Clinical isolate	MT-4	≤0.008 µM
CCc1cc(CCc2nc3ccccc3o2)c(=S)[nH]c1C		IIIB	H9	0.1 µM
CCc1cc(NCc2nc3c(C)ccc(C)c3o2)c(=O)[nH]c1C		IIIB	MT-4	0.025–0.05 µM
CCCc1nnc(C[C@H](C[C@H](O)CN2CCN(Cc3ccc(-c4ccc(Cl)cc4)o3)C[C@H]2C(=O)NCC(F)(F)F)C(=O)N[C@H]2c3ccccc3OC[C@H]2O)o1	PR-L10I M36I N37D M46I R57K L63P A71V G73S I84V L90M I93L	V-18 Clinical isolate	MT-4	0.125 µM
Cc1cc(C)c(-n2nnnc2SCC(=O)Nc2ccccc2[N+](=O)[O-])c(C)c1			MT-4	<10 µM
Cc1nnc(C[C@H](C[C@H](O)CN2CCN(C(C)(C)c3ncc(-c4ccc(Cl)cc4)o3)C[C@H]2C(=O)NCC(F)(F)F)C(=O)N[C@H]2c3ccccc3OC[C@H]2O)o1	PR-L10I N37S R41K M46I I54V I62V L63P A71V V77I V82A L90M I93L	Q-60 Clinical isolate	MT-4	≤0.008 µM
Cc1cc(C)c(-n2nnnc2SCC(=O)Nc2cc([N+](=O)[O-])ccc2Cl)c(C)c1			MT-4	<10 µM
Cc1ccc(-n2ccc(CN3CCN(C[C@@H](O)C[C@@H](Cc4cccnc4)C(=O)N[C@H]4c5ccccc5OC[C@H]4O)[C@H](C(=O)NCC(F)(F)F)C3)c2)cc1	PR-L10I N37S R41K M46I I54V I62V L63P A71V V77I V82A L90M I93L	Q-60C Clinical isolate	MT-4	≤0.008 µM
Cc1cc(C)c(-n2nnnc2SCC(=O)Nc2ccccc2C#N)c(C)c1			MT-4	<10 µM
O=C1N(Cc2ccc(CO)cc2)[C@H](Cc2ccccc2)[C@H](O)[C@@H](O)[C@@H](Cc2ccccc2)N1Cc1ccc(CO)cc1	PR-M46I V82T I84V	NL4-3	MT-4	1.5 µM
COc1cncc(-c2cnc(C(C)(C)N3CCN(C[C@@H](O)C[C@@H](Cc4nnc(C)o4)C(=O)N[C@H]4c5ccccc5OC[C@H]4O)[C@H](C(=O)NCC(F)(F)F)C3)o2)c1	PR-L10I M36I N37D M46I R57K L63P A71V G73S I84V L90M I93L	V-18 Clinical isolate	MT-4	>1 µM
O=C(NCc1ccc(F)cc1)c1nc(N2CCCCS2(=O)=O)c2cccnc2c1O		BaL	Macrophage	0.035 µM
O=C(N[C@H]1c2ccccc2OC[C@H]1O)[C@H](Cc1cccnc1)C[C@H](O)CN1CCN(Cc2ccn(-c3ccccc3)c2)C[C@H]1C(=O)NCC(F)(F)F	PR-L10I M36I N37D M46I R57K L63P A71V G73S I84V L90M I93L	V-18C Clinical isolate	MT-4	≤0.008 µM
CC(C)(C)NC(=O)[C@@H]1C[C@@H]2CCCC[C@@H]2CN1C[C@@H](O)[C@H](Cc1ccccc1)NC(=O)[C@H](CC(N)=O)NC(=O)c1ccc2ccccc2n1	PR-L10R M46I L63P	NL4-3	MT-4	0.025 µM
O=C(N[C@H]1c2ccccc2OC[C@H]1O)[C@H](Cc1nnco1)C[C@H](O)CN1CCN(Cc2ccc(-c3ccc(Cl)cc3)o2)C[C@H]1C(=O)NCC(F)(F)F	PR-L10I M36I N37D M46I R57K L63P A71V G73S I84V L90M I93L	V-18 Clinical isolate	MT-4	0.125 µM

For reference, 3 entries again:

O=C(N[C@H]1c2ccccc2OCC1O)[C@H](Cc1cccnc1)C[C@H](O)CN1CCN(Cc2ccc(-c3ccccc3)o2)C[C@H]1C(=O)NCC(F)(F)F ; mutations: PR-L10I N37S R41K M46I I54V I62V L63P A71V V77I V82A L90M I93L ; strain: Q-60C Clinical isolate ; cells: MT-4 ; value: ≤0.008 µM
COc1cncc(-c2cnc(C(C)(C)N3CCN(C[C@@H](O)C[C@@H](Cc4nnc(C)o4)C(=O)N[C@H]4c5ccccc5OC[C@H]4O)[C@H](C(=O)NCC(F)(F)F)C3)o2)c1 ; mutations: PR-L10I M36I N37D M46I R57K L63P A71V G73S I84V L90M I93L ; strain: V-18 Clinical isolate ; cells: MT-4 ; value: >1 µM
O=C(N[C@H]1c2ccccc2OC[C@H]1O)[C@H](Cc1cccnc1)C[C@H](O)CN1CCN(Cc2ccn(-c3cccc(Cl)c3)c2)C[C@H]1C(=O)NCC(F)(F)F ; mutations: PR-L10I M36I N37D M46I R57K L63P A71V G73S I84V L90M I93L ; strain: V-18C Clinical isolate ; cells: MT-4 ; value: ≤0.008 µM

ECn is the concentration giving n% inhibition of infection, replication or growth. Two numbers with a dash give a range or band. Lines come from different laboratories, so protocols vary.